Pooled drug test results. Numbers come from NIAID ChemDB, via PubChem.

Shared fields: tests in culture; species: HIV-1

ECn is the concentration giving n% inhibition of infection, replication or growth. Blank or dashed fields: not listed here. Lines come from different laboratories, so protocols vary. a–b is a range or a potency band.

SMILES	endpoint	cell line	mutations	method	strain or isolate	value
Cc1cc2cn[nH]c2cc1NC(=O)COc1ccc(Cl)cc1C(=O)c1cccc(C#N)c1	EC50	MT-4	-	cytopathic effect / propidium iodide	IIIB	<0.01 µM
COc1ccc(N(C)C(=O)[C@H](Cc2ccccc2)NC(=O)c2cc(C(=O)N[C@@H](Cc3ccccc3)C(=O)N(C)c3ccc(OC)cc3)n(C)n2)cc1	EC50	MT-2	-	luciferase	NL4-3	2.13 µM
COc1ccc(S(=O)(=O)NC(CC(C)C)C(F)(F)C(=O)[C@@H](Cc2ccccc2)NC(=O)O[C@H]2CCOC2)cc1	EC90	CEM	-	p24	IIIB	1 µM
Cc1cc(/C=C/C#N)cc(C)c1Oc1nc(NC2CCN(Cc3cccc(Cl)c3)CC2)nc2ccsc12	EC50	MT-4	NNRTI-resistant (RT L100I)	MTT	IIIB	0.03 µM
COc1ccc(S(=O)(=O)N(CC(O)CN(Cc2ccccc2)C(=O)OC2COCOC2)CC2CCCC2)cc1	EC50	CEM	-	p24	IIIB	<1 µM
Cc1cc(C#N)cc(C(=O)c2cc(Cl)ccc2OCC(=O)Nc2ccc(S(N)(=O)=O)nc2C)c1	EC50	HeLa + HELA CD4+	RT-V106I Y181C	β-galactosidase	HXB2	<0.01 µM
CC(=O)c1ccc(C)cc1NC(C(N)=O)c1c(Cl)cccc1Cl	EC50	CEM + CEM-SS	RT-Y181C K101E	cytopathic effect / XTT	UC10-resistant (RT Y181C K101E)	>1 µM
CCC(=O)c1ccc(F)c([C@@H]2C[C@@H]2NC(=O)Nc2ccc(C#N)cn2)c1O	EC50	TZM-bl	NNRTI-resistant (RT V90I)	β-galactosidase / luminescence	LAI	0.00098 µM
Cc1nc2ccc(Cl)cc2c(-c2ccsc2)c1C(OC(C)C)C(=O)O	EC50	C8166	-	luciferase / reporter gene	-	<20 µM
Cc1cc(C#N)cc(C(=O)c2cc(Cl)ccc2OCC(=O)Nc2cnc(S(N)(=O)=O)cc2C)c1	EC50	HeLa + HELA CD4+	RT-K103N P225H	β-galactosidase	HXB2	<0.01 µM
COc1ccc(S(=O)(=O)N(CCC(O)CN(CC(C)C)S(=O)(=O)c2ccccc2)CC2CCCC2)cc1	EC50	CEM	-	p24	IIIB	<1 µM
CC1CC(C)CN(S(=O)(=O)c2ccccc2[N+](=O)[O-])C1	EC50	HeLa	-	GFP / fluorescence	52534-2	1 µM
CCCc1cc(=O)oc2c3c(c4c(c12)OC(C)(C)CC4)O[C@@H](C)[C@H](C)[C@@H]3O	EC50	PBMC	-	RT activity	WEJO	0.2 µM
COc1ccnc2[nH]cc(C(=O)C(=O)N3C4CC3CN(C(=O)c3ccccc3)C4)c12	EC50	TZM-bl	-	luciferase	QH0692	>>250 µM
O=C1c2c(O)c(=O)n(C3CCOC3)c(=O)n2CCN1Cc1ccc(F)cc1	EC95	MT-4	-	p24	-	<10 µM
Cc1cc(C#N)cc(C)c1Oc1nc(NC2CCC(NCc3ccccc3)CC2)nc2ccsc12	EC50	MT-4	NNRTI-resistant (RT Y181C)	MTT	IIIB	>2.98 µM
Cc1cc(S(N)(=O)=O)ccc1NC(=O)COc1ccc(Cl)cc1C(=O)c1cc(F)cc(F)c1	EC50	HeLa + HELA CD4+	RT-G190A	β-galactosidase	HXB2	<0.01 µM
Cc1cc(C#N)cc(C)c1Oc1nc(NC2CCC(NCc3ccc(S(C)(=O)=O)cc3)CC2)nc2ccsc12	EC50	MT-4	NNRTI-resistant	MTT	IIIB	113 µM
CC(C)=CCOc1cc(NC(=S)c2ccoc2C)ccc1Cl	EC50	CEM + CEM-SS	-	p24	IIIB	0.008 µM
COc1ccnc2[nH]cc(C(=O)C(=O)N3C4CCCC3CN(C(=O)c3ccccc3)C4)c12	EC90	TZM-bl	-	luciferase	QH0692	57 µM
Cc1cc(C#N)cc(C)c1Oc1nc(NC2CCC(NCc3ccc([N+](=O)[O-])cc3)CC2)nc2ccsc12	EC50	MT-4	NNRTI-resistant (RT L100I)	MTT	IIIB	1.55 µM
CCO[C@H](C(=O)O)c1c(C)nc2ccc(Cl)cc2c1-c1ccc(OC)cc1	EC50	C8166	-	luciferase / reporter gene	-	<20 µM
C=CCN(C(=O)[C@H](Cc1cc(F)cc(F)c1)NS(=O)(=O)c1cccc(S(=O)(=O)N[C@@H](Cc2cc(F)cc(F)c2)C(=O)N(CC=C)c2ccc(OC)cc2)c1)c1ccc(OC)cc1	EC50	MT-2	-	luciferase	NL4-3	3.78 µM
CC(C)[C@H](NC(=O)OCc1ccccn1)C(=O)N[C@@H](Cc1ccccc1)[C@@H](O)C[C@H](Cc1ccccc1)NC(=O)OCc1cccnc1	EC50	MT-4	PR-L10R M46I V82T	p24	NL4-3	<1.5 µM
N#CC1=CC2Nc3ccccc3C2N(c2ccc([N+](=O)[O-])cc2)C1=O	EC50	HeLa	-	GFP / fluorescence	12AG	0.49 µM
Cc1ncc(N(C)C(=O)[C@H](Cc2cc(F)cc(F)c2)NC(=O)NS(=O)(=O)N[C@@H](Cc2cc(F)cc(F)c2)C(=O)N(C)c2cnc(C)c(Cl)c2)cc1Cl	EC50	MT-2	-	luciferase	NL4-3	0.87 µM
O=C(N[C@@H](Cc1ccccc1)C(=O)C(F)(F)CN(Cc1ccccc1)S(=O)(=O)c1ccccc1)OCc1ccccc1	EC50	CEM	-	p24	IIIB	<1 µM
O=C1c2c(O)c(=O)n(CC3COCCO3)c(=O)n2CCN1Cc1ccc(F)cc1	EC50	MT-4	-	p24	-	<10 µM
Cc1cc(Cl)cc(C(=O)c2cc(Cl)ccc2OCC(=O)Nc2ccc(S(N)(=O)=O)cc2C)c1	EC50	HeLa + HELA CD4+	-	β-galactosidase	WTRVA	0.011–0.1 µM
O=C1c2c(O)c(=O)n(C3CCCCCC3)c(=O)n2CCN1Cc1ccc(F)cc1	EC50	MT-4	-	p24	-	<10 µM
C=CCN(C(=O)[C@H](Cc1cc(F)cc(F)c1)NC(=O)NS(=O)(=O)N[C@@H](Cc1cc(F)cc(F)c1)C(=O)N(CC=C)c1ccc(OC)cc1)c1ccc(OC)cc1	EC50	MT-2	-	luciferase	NL4-3	0.26 µM
CC#CCOC(C(=O)O)c1c(C)nc2ccc(Br)cc2c1-c1ccc(Cl)cc1	EC50	C8166	-	luciferase / reporter gene	-	<20 µM
COc1ccc(N(C)C(=O)[C@H](Cc2ccccc2)NC(=O)Cn2c(=O)n(CC(=O)N[C@@H](Cc3ccccc3)C(=O)N(C)c3ccc(OC)cc3)c3cc(OC)ccc32)cc1	EC50	MT-2	-	luciferase	NL4-3	0.09 µM
Cc1cc(S(N)(=O)=O)ccc1NC(=O)COc1ccc(Cl)cc1C(=O)c1cc(Cl)cc(C#N)c1	EC50	HeLa + HELA CD4+	RT-V108I	β-galactosidase	HXB2	<0.01 µM
O=C(c1ccccc1)N(CCc1ccccc1)C[C@H](O)CN(CC1CCCC1)S(=O)(=O)C1CCCCC1	EC50	CEM	-	p24	IIIB	<1 µM
CN(C(=O)[C@H](Cc1cc(F)cc(F)c1)NC(=O)NS(=O)(=O)N[C@@H](Cc1cc(F)cc(F)c1)C(=O)N(C)c1ccc(C(C)(C)C)cc1)c1ccc(C(C)(C)C)cc1	EC50	MT-2	-	luciferase	NL4-3	0.15 µM
Cc1nc2ccc(Cl)cc2c(-c2ccsc2Cl)c1C(OC(C)C)C(=O)O	EC50	C8166	-	luciferase / reporter gene	-	<20 µM
Cc1cc(S(N)(=O)=O)ccc1NC(=O)COc1ccc(Cl)cc1C(=O)c1cc(F)cc(C#N)c1	EC50	HeLa + HELA CD4+	RT-P236L	β-galactosidase	HXB2	<0.01 µM
Cc1cc(N(C)C(=O)[C@H](Cc2cc(F)cc(F)c2)NC(=O)NS(=O)(=O)N[C@@H](Cc2cc(F)cc(F)c2)C(=O)N(C)c2cnc(C)c(C)c2)cnc1C	EC50	MT-2	-	luciferase	NL4-3	7 µM
CCc1cc(C#N)cc(C(=O)c2cc(Cl)ccc2OCC(=O)Nc2ccc(S(N)(=O)=O)cc2C)c1	EC50	HeLa + HELA CD4+	RT-V106I	β-galactosidase	HXB2	<0.01 µM
CCOC(=O)c1ccc(CN2CCC(Nc3nc(Oc4c(C)cc(/C=C/C#N)cc4C)c4sccc4n3)CC2)cc1	EC50	MT-4	NNRTI-resistant (RT K103N)	MTT	IIIB	0.0132 µM
CC(=O)N1CCOCC1Cn1c(=O)c(O)c2n(c1=O)CCN(Cc1ccc(F)cc1)C2=O	EC50	MT-4	-	p24	-	<10 µM
COc1ccc(N(C)C(=O)[C@H](Cc2ccccc2)NC(=O)NS(=O)(=O)N[C@@H](Cc2ccccc2)C(=O)N(C)c2ccc(OC)cc2C)cc1	EC50	MT-2	-	luciferase	NL4-3	1.72 µM
Cc1ccccc1-c1c(C(OC(C)C)C(=O)O)c(C)nc2ccc(Cl)cc12	EC50	C8166	-	luciferase / reporter gene	-	<20 µM
Cc1cc(/C=C/C#N)cc(C)c1Oc1nc(NC2CCN(Cc3cccc(C(N)=O)c3)CC2)nc2ccsc12	EC50	MT-4	NNRTI-resistant (RT Y188L)	MTT	IIIB	0.0274 µM
CC(C)=CCOc1cc(NC(=S)c2ccsc2C)ccc1Cl	EC50	CEM + CEM-SS	RT-L74V	cytopathic effect / XTT	NL4-3 (RT L74V)	0.006 µM
CCOC(C(=O)O)c1c(C)nc2ccc(Cl)cc2c1-c1ccc(Cl)cc1	EC50	C8166	-	luciferase / reporter gene	-	<20 µM
CC(C)=CCOc1cc(NC(=S)c2ccoc2C)ccc1Cl	EC50	CEM + CEM-SS	RT-Y188C	cytopathic effect / XTT	NL4-3 (RT Y188C)	0.01 µM
Cc1cc(C)cc(C(=O)c2cc(Cl)ccc2OCC(=O)Nc2ccc(S(N)(=O)=O)cc2C)c1	EC50	HeLa + HELA CD4+	RT-G190A	β-galactosidase	HXB2	<0.01 µM
CC(C)CN(CC(O)CNc1cc(C(C)(C)C)[nH]n1)S(=O)(=O)c1ccccc1	EC50	CEM	-	p24	IIIB	<1 µM
CCCC(C(=O)O)c1c(-c2ccc(Cl)cc2)c2ccccc2[nH]c1=O	EC50	C8166	-	luciferase / reporter gene	-	<20 µM

The first 7 rows once more:

SMILES	endpoint	cell line	mutations	method	strain or isolate	value
Cc1cc2cn[nH]c2cc1NC(=O)COc1ccc(Cl)cc1C(=O)c1cccc(C#N)c1	EC50	MT-4	-	cytopathic effect / propidium iodide	IIIB	<0.01 µM
COc1ccc(N(C)C(=O)[C@H](Cc2ccccc2)NC(=O)c2cc(C(=O)N[C@@H](Cc3ccccc3)C(=O)N(C)c3ccc(OC)cc3)n(C)n2)cc1	EC50	MT-2	-	luciferase	NL4-3	2.13 µM
COc1ccc(S(=O)(=O)NC(CC(C)C)C(F)(F)C(=O)[C@@H](Cc2ccccc2)NC(=O)O[C@H]2CCOC2)cc1	EC90	CEM	-	p24	IIIB	1 µM
Cc1cc(/C=C/C#N)cc(C)c1Oc1nc(NC2CCN(Cc3cccc(Cl)c3)CC2)nc2ccsc12	EC50	MT-4	NNRTI-resistant (RT L100I)	MTT	IIIB	0.03 µM
COc1ccc(S(=O)(=O)N(CC(O)CN(Cc2ccccc2)C(=O)OC2COCOC2)CC2CCCC2)cc1	EC50	CEM	-	p24	IIIB	<1 µM
Cc1cc(C#N)cc(C(=O)c2cc(Cl)ccc2OCC(=O)Nc2ccc(S(N)(=O)=O)nc2C)c1	EC50	HeLa + HELA CD4+	RT-V106I Y181C	β-galactosidase	HXB2	<0.01 µM
CC(=O)c1ccc(C)cc1NC(C(N)=O)c1c(Cl)cccc1Cl	EC50	CEM + CEM-SS	RT-Y181C K101E	cytopathic effect / XTT	UC10-resistant (RT Y181C K101E)	>1 µM